{
  "source": "patent EP1377165B1",
  "about": "(MYRIAD GENETICS, INC., dated 2009)",
  "biological_target": "T1, Yeast two-hybrid activation domain-Tsg101 construct (full-length Tsg101 in GADpN2) (human, UniProt P04386 768-881; Q99816 1-390)",
  "T1 construct": "range 768-881;range 1-390; not shown: SV40 NLS of the parent plasmid GADpN2",
  "T1 sequence": "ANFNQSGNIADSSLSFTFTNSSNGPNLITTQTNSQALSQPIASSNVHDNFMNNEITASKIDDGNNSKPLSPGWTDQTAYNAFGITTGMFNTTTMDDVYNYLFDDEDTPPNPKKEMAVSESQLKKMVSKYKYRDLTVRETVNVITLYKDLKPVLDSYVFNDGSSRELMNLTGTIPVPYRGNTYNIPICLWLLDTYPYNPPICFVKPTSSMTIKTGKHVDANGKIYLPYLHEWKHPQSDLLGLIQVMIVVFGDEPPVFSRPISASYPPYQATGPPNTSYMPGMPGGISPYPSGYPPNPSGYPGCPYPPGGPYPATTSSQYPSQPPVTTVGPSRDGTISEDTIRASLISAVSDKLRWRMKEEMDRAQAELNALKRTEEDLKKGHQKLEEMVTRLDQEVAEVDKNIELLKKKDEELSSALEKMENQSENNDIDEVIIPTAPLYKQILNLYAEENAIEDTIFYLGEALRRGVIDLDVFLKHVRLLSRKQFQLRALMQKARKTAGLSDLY",
  "experiment": "yeast two-hybrid, filter lift β-Gal assay",
  "data": [
    {"binder": "Yeast two-hybrid DNA binding domain-HIV1 GAGp6 construct, wild type (HIV1.NL43 strain) (other) MKLLSSIEQACDICRLKKLKCSKEKPKCAKCLKNNWECRYSPKTKRSPLTRAHLTEVESRLERLEQLFLLIFPREDLDMILKMDSLQDIKALLTGLFVQDNVNKDAVTDRLASVETDMPLTLRQHRISATSSSEESSNKGQRQLTVSLQSRPEPTAPPEESFRFGEETTTPSQKQEPIDKELYPLASLRSLFGSDPSSQ", "values": [
      {"measurement": "binding result", "value": "binds"}
    ]}
  ]
}
